Source: patent US20240066051A1, “NASAL SPRAY USING PENTOSAN POLYSULFATE AND MUCOPOLYSACCHARIDE POLYSULFATE FOR COVID-19 PREVENTION AND TREATMENT” (priority 2022, published 2024)

Molecular target: T1, S-protein RBD (WT) (Severe acute respiratory syndrome coronavirus 2, UniProt P0DTC2)
T1 construct: made in house; host or cells: Expi293F cells
Parameters: species or system SARS-CoV-2
Conditions: read-out: IC50 against the S-protein RBD binding to immobilized heparin

With mucopolysaccharide polysulfate [MPS] the IC50 was about 9 nM.
